Consider 1 substance from article PMC8967715, “ACE2 binding is an ancestral and evolvable trait of sarbecoviruses” (2022).

This assay deals with Mouse (Mus musculus) ACE2 (residues 18–740) with His tag and human IgG1 Fc, mouse (Mus musculus), Q8R0I0-1 18-740. The experiment in a line: FACS; apparent KD, printed as -log10(KD,app) = […].

Regarding SARS-CoV-1 Urbani RBD, yeast-displayed, the Kd worked out at 158 nM.
